A mixed list of measured activities; the numbers were collected in NIAID ChemDB.

Shared fields: whole-cell or culture tests; species: Mycobacterium tuberculosis

Percent inhibition refers to the dose given; in toxicity tests it is the harm to the cells. MIC bound comes from a single tested concentration. Neighbouring rows are from separate reports. An empty or dashed field is not shown. ECn is the concentration giving n% inhibition of infection, replication or growth. MIC50, MIC90 and the like: level of inhibition, or share of isolates inhibited. a–b is a range or a potency band.

smiles,tested at,strain,measure,cells,read by,value
Cc1[nH][nH]c(=O)c1N=Nc1ccc(-c2n[nH]c(=S)n2-c2ccccc2)cc1,12.5 µg/mL,H37Rv,inhibition,,,0%
NC1=C(O)/C(=N/NS(=O)(=O)c2ccccc2)C(c2ccc3c(c2)OCO3)O1,,H37Rv,MIC bound,,BACTEC,>12.5 µg/mL
CCCCN1C(=O)C(=O)c2cccc(-c3ccccc3)c21,,H37Rv,MIC,,,≤20 µg/mL
COC(=O)c1sc(NC(=O)c2c(F)c(F)c(F)c(F)c2F)c(C(N)=O)c1C,,,MIC,,,4.9 µM
CC1CC(C)CN(c2nc(Nc3ccc(C#N)c(C(F)(F)F)c3)nc(Oc3ccnc4ccccc34)n2)C1,6.25 µg/mL,H37Rv,inhibition,,BACTEC,99%
COc1ccc(-c2oc3cc(OC)cc(OC)c3c(=O)c2-c2c(-c3ccc(OC)cc3)oc3cc(OC)cc(OC)c3c2=O)cc1,,,MIC,,,>12.5 µg/mL
COC(=O)c1c(NC(=O)c2c(F)c(F)c(F)c(F)c2F)sc2c1CCCCC2,,,MIC,,,1 µM
CCOC(=O)/C(N=Nc1ccc(-c2n[nH]c(=S)n2CC)cc1)=C(\C)O,,H37Rv,MIC,,,>12.5 µg/mL
Cc1ccc(C)n1-c1nc(-c2ccc(N)cc2)cs1,,H37Rv,MIC,,resazurin,12.5 µg/mL
NNC(=O)CCc1ccncc1,,H37Rv,MIC,,BACTEC,≥12.5 µg/mL
O=c1cc(-c2ccc(Oc3c(O)cc4oc(-c5ccc(O)cc5)cc(=O)c4c3O)cc2)oc2cc(O)cc(O)c12,,,EC50,,,>12.5 µg/mL
Cn1c(C(C)(C)O)cnc1[N+](=O)[O-],,H37Rv,MIC bound,,resazurin,>6.25 µg/mL
CC/C(=C(\c1ccccc1)c1ccc(OCCN(C)C)cc1)c1ccccc1,,H37Ra,MIC,,resazurin,3.125–6.25 µg/mL
O=[n+]1c2ccccc2n([O-])c2ccccc21.[Cl][Cu][Cl],,INH-r,MIC,,,3.1 µg/mL
CC(O)C1C(=O)N2C(C(=O)O)C=C(SC3CN(C4=NCCC4)C3)C12,,H37Rv,MIC90,THP-1,luminescence,46.48 µM
CCOC(=O)c1oc2ccccc2c1CN(CCO)CCO,,H37Rv,MIC bound,,BACTEC,>12.5 µg/mL
N#Cc1ccc(Nc2nc(Oc3ccnc4ccccc34)nc(N3CCN(C(c4ccccc4)c4ccc(Cl)cc4)CC3)n2)cc1C(F)(F)F,,H37Rv,MIC,,agar,50 µg/mL
NC(N)=Nc1ccc(-c2ccc(-c3ccc(N=C(N)N)cc3Cl)o2)c(Cl)c1,,,EC50,,,>12.5 µg/mL
CCCCCCCCCN1C(=O)C(=O)c2cccc(-c3ccccc3)c21,,H37Rv,MIC,,,≤20 µg/mL
OC(c1ccccc1)(c1ccco1)C(O)(c1ccccc1)c1ccco1,,H37Rv,MIC bound,,,>6.25 µg/mL
CO[C@H]1CCC[C@H]2C1=C(C(=O)O)N1C(=O)[C@H]([C@@H](C)O)[C@@H]21,,H37Rv,MIC,,MTT,3.2 µM
CC(=O)Nc1ccc(/C=N/NC(=S)NC2CN3CCC2CC3)cc1,12.5 µg/mL,H37Rv,inhibition,,BACTEC,8%
CC1COc2c(N3CCN(C)CC3)c(F)cc3c(=O)c(C(=O)O)cn1c23,,38 strains,MIC90,,,0.78 µg/mL
C[C@H](O)[C@H]1C(=O)N2C(C(=O)O)=C(S[C@@H]3CN[C@H](C(=O)N(C)C)C3)[C@H](C)[C@H]12,,H37Rv,MIC90,THP-1,luminescence,17.01 µM
O=C(NN1C(=O)c2c(F)c(F)c(F)c(F)c2C1=O)c1ccc(-n2cccc2)cc1,,H37Rv,MIC,,resazurin,0.2 µg/mL
O=C(Nc1ccc(Cl)cc1)c1ccccc1O,,My 331/88,MIC,,,31 µM
CCCCCCCN1C(=O)C(=O)c2cccc(-c3ccccc3)c21,,H37Ra,MIC,,,≤20 µg/mL
Cc1ncc([N+](=O)[O-])n1CCO,,H37Rv,MIC,,turbidity,>200 µg/mL
Cc1ccc(C)n1-c1nc(-c2ccccc2)cs1,,H37Rv,MIC,,resazurin,0.4 µM
Nc1cc(S(=O)(=O)O)c(O)c2c1C(=O)c1c(O)c(S(=O)(=O)O)cc(N)c1C2=O,,H37Rv,MIC bound,,BACTEC,>12.5 µg/mL
NC(=S)Nc1cccc([N+](=O)[O-])c1,,A67,MIC,,,250 µM
CC1=CC[C@H]2[C@]3(C)CC[C@@]4(C)[C@@H]5CC(C)(C)CC[C@]5(C)CC[C@]4(C)[C@H]3CC[C@]12C,12.5 µg/mL,H37Rv,inhibition,,BACTEC,6%
CO[C@H]1/C=C/O[C@@]2(C)Oc3c(C)c(O)c4c(O)c(c(/C=N/N5CCN(C)CC5)c(O)c4c3C2=O)NC(=O)/C(C)=C\C=C\[C@H](C)[C@H](O)[C@@H](C)[C@@H](O)[C@@H](C)[C@H](OC(C)=O)[C@@H]1C,,38 strains,MIC50,,,0.1 µg/mL
COc1ccc(NC(=O)C(COCc2ccccc2)C(C)=O)cc1,,H37Rv,MIC bound,,BACTEC,>12.5 µg/mL
C=CCn1c(-c2ccc(N=Nc3c(C)[nH][nH]c3=O)cc2)n[nH]c1=S,12.5 µg/mL,H37Rv,inhibition,,,0%
O=C(CSc1nnc(-c2ccncc2)n1-c1ccccc1)c1ccccc1,6.25 µg/mL,H37Rv,inhibition,,,12%
C/C=C/C/C=C/CCC(=O)[C@H]1O[C@H]1C(N)=O,,Isolate H389 (MDR),MIC,,,3 µg/mL
Cc1[nH]n(-c2ccccc2)c(=O)c1N=Nc1ccc(-c2n[nH]c(=S)o2)cc1,12.5 µg/mL,H37Rv,inhibition,,,91%
COc1cc(Cc2cnc(N)nc2N)cc(OC)c1OC,,H37Rv,MIC,,turbidity,>200 µg/mL
O=C1C2[Se][Se]C(C(=O)N2Cc2ccccc2)N1Cc1ccccc1,,,EC50,,turbidity,2.7 µM
O=c1cc(-c2ccc(O)c(-c3c(O)cc4oc(-c5ccc(O)cc5)cc(=O)c4c3O)c2)oc2cc(O)cc(O)c12,,,MIC,,,>12.5 µg/mL
O=C(Nc1ccc([N+](=O)[O-])cc1)c1ccccc1O,,My 331/88,MIC,,,8 µM
Cc1cc2ncn(CC(=O)NN)c2cc1C,,H37Rv,MIC,,BACTEC,≥12.5 µg/mL
CCC[C@@H]1C[C@@H](C(=O)N[C@@H]([C@H]2O[C@H](SC)[C@H](O)[C@@H](O)[C@H]2O)[C@H](C)Cl)N(C)C1,,H37Rv,MIC,,turbidity,>200 µg/mL
Cc1ccc(-c2ccccc2)n1NC(=O)c1ccncc1,,H37Rv,MBC,,turbidity,7.8 µg/mL
Cc1ccc(C)n1-c1ccc(C(=O)NN2C(=O)c3c(Br)c(Br)c(Br)c(Br)c3C2=O)cc1,,H37Rv,MIC,,resazurin,0.4 µg/mL
CCOC(=O)C(=O)C1C(=O)N(C)C2(C)CC1c1ccccc1O2,12.5 µg/mL,H37Rv,inhibition,,BACTEC,17%
Cc1cc(=O)oc2ccc(OCC(=O)Nn3c(C)ccc3-c3ccccc3)cc12,100 µg/mL,H37Rv (ATCC 27294),inhibition,,resazurin,100%
C[C@H](O)[C@H]1C(=O)N2C(C(=O)O)=C(S[C@@H]3CN[C@H](C(=O)Nc4cccc(C(=O)O)c4)C3)[C@H](C)[C@H]12,,H37Rv,MIC90,THP-1,luminescence,>50 µM
O=c1cc(-c2ccc(O)c(-c3c(O)cc(O)c4c(=O)cc(-c5ccc(O)cc5)oc34)c2)oc2cc(O)cc(O)c12,,,EC50,,,>12.5 µg/mL
COc1ccc(N2C(=O)C(=O)N(C)C2=O)c2ccccc12,12.5 µg/mL,H37Rv,inhibition,,BACTEC,0%
COC(=O)c1c(NC(=O)c2c(F)c(F)c(F)c(F)c2F)sc2c1CCC2,,,MIC,,,2.1 µM
O=C(NN1C(=O)c2cc(Cl)c(Cl)cc2C1=O)c1ccc(-n2cccc2)cc1,,H37Rv,MIC,,resazurin,0.8 µg/mL
NC(=S)Nc1ccc(C(=O)O)cc1,,A67,MIC,,,250 µM
O=C(Nn1c(-c2ccccc2)ccc1-c1ccccc1)c1ccncc1,,H37Rv,EC50,,turbidity,2.71 µg/mL
CCn1c(-c2ccc(N=Nc3c(C)[nH]n(CCO)c3=O)cc2)n[nH]c1=S,12.5 µg/mL,H37Rv,inhibition,,,0%
O=C(Nc1ccccc1)c1ccccc1O,,My 331/88,MIC,,,62 µM
O=c1cc(-c2ccccc2-c2cccc3c(=O)cc(-c4ccccc4)oc23)oc2ccccc12,,,MIC,,,>12.5 µg/mL
O=C(N/N=C/c1ccc2c(c1)OCO2)C(=O)N/N=C/c1ccc2c(c1)OCO2,,H37Rv,MIC,,BACTEC,≥12.5 µg/mL
O=c1cc(-c2ccc(Oc3c(-c4cccc([N+](=O)[O-])c4)oc4ccccc4c3=O)cc2)oc2ccccc12,,,MIC,,,>12.5 µg/mL
COc1cc(C2=NN(C(=O)COc3ccc4ccccc4c3)C3CCCC23)c(C)cc1OCC(=O)O,,H37Rv,MIC,,,>6.25 µg/mL
CC1=NN(C(=O)c2ccncc2)C(=O)C1N=Nc1ccc(Cl)cc1,12.8 µg/mL,H37Rv,inhibition,,BACTEC,40%
O=C(CSc1nnc(-c2ccncc2)n1-c1ccc(F)cc1)c1ccccc1,,H37Rv,MIC,,,>6.25 µg/mL
CC(C)Cc1ccc(C(C)C(=O)Nn2c(-c3ccccc3)ccc2-c2ccccc2)cc1,100 µg/mL,H37Rv (ATCC 27294),inhibition,,resazurin,100%
Cn1nc(-c2ccc(Cl)c(Cl)c2)nc2c(=O)n(C)c(=O)nc1-2,,H37Rv,MIC bound,,BACTEC,>12.5 µg/mL
CCCCCCCCCCCN1C(=O)C(=O)c2cccc(-c3ccccc3)c21,,H37Rv,MIC,,,≤20 µg/mL
CC(=O)Nc1ccc(S(=O)(=O)N/N=C/c2c(O)ccc3ccccc23)cc1,,H37Rv,MIC,,BACTEC,≥12.5 µg/mL
COc1ccc(-c2cc(=O)c3c(OC)cc(OC)c([C@H]4C(=O)c5c(OC)cc(OC)cc5O[C@@H]4c4ccc(OC)cc4)c3o2)cc1,,,EC50,,,<12.5 µg/mL
NC(=S)Nc1ccc(O)cc1,,A67,MIC,,,500 µM
CC(=O)Nc1ccc(/C=N/NC(N)=S)cc1,,1620,MIC,,,0.3 µg/mL
N#Cc1ccc(Nc2nc(Oc3ccnc4ccccc34)nc(N3CCN(c4cccc(Cl)c4Cl)CC3)n2)cc1C(F)(F)F,,H37Rv,MIC,,agar,12.5 µg/mL
C[C@H](O)[C@H]1C(=O)N2C(C(=O)O)=C(S[C@@H]3CN[C@H](C(=O)N(C)C)C3)[C@H](C)[C@H]12,,H37Rv,MIC,,turbidity,6.3 µg/mL
Fc1ccc(-n2c(-c3ccncc3)n[nH]c2=S)cc1,,H37Rv,MIC,,,>6.25 µg/mL
COc1cc2c(oc(=O)c3cc(C)cc(OC)c32)c2c(C3OC(C)C(O)C(C)(O)C3O)ccc(O)c12,,INH-r,MIC,,,6.3 µg/mL
COC(=O)c1ccc(O)c(NC(N)=S)c1,,A67,MIC,,,500 µM
CCn1c(SCC(=O)c2ccccc2)nnc1-c1ccncc1,,H37Rv,MIC,,,>6.25 µg/mL
O=c1cc(-c2cccs2)ss1,,H37Rv,MIC bound,,BACTEC,>12.5 µg/mL
CO[C@H]1/C=C/O[C@@]2(C)Oc3c(C)c(O)c4c(=O)c(c5oc6cc(N7CCN(CC(C)C)CC7)cc(=O)c6nc5c4c3=C2O)NC(=O)/C(C)=C\C=C\[C@H](C)[C@H](O)[C@@H](C)[C@@H](O)[C@@H](C)[C@H](OC(C)=O)[C@@H]1C,,Atencio,MIC,,,0.001 µg/mL
NC(=S)N/N=C/c1cccc([N+](=O)[O-])c1O,,A67,MIC,,,500 µM
COc1ccc(C2=C3c4cc(OC)c(OC)cc4CCN3C(=S)SS2)cc1OC,12.5 µg/mL,H37Rv,inhibition,,BACTEC,0%
CCOC(=O)CCCCCCCCCCCC[C@H]1C=CCC1,,H37Rv,MIC,,GFP,16.8 µM
CO[C@H]1/C=C/O[C@@]2(C)Oc3c(C)c(O)c4c(O)c(c(/C=N/N5CCN(C)CC5)c(O)c4c3C2=O)NC(=O)/C(C)=C\C=C\[C@H](C)[C@H](O)[C@@H](C)[C@@H](O)[C@@H](C)[C@H](OC(C)=O)[C@@H]1C,,6 strains (rifampicin-resistant),MIC50,,,100 µg/mL
Cc1ccc(NC(=O)c2ccccc2O)cc1,,My 331/88,MIC,,,62 µM
COC(=O)c1c(NC(=O)c2ccccc2F)sc2c1CCCCC2,,,MIC,,,20.2 µM